Compound potency records, mixed from different reports. Data source: NIAID ChemDB in PubChem.

Shared fields: tests in culture

Neighbouring rows are from separate reports.

{"smiles": "COc1ccc2oc(=O)n(-c3ccccc3)c(=S)c2c1", "species": "Mycobacterium kansasii", "strain or isolate": "My 235/80", "conditions": "21 d", "read-out": "MIC", "result": "32 µM"}
{"smiles": "CCN1CCc2c(sc(NC(=O)c3c(F)c(F)c(F)c(F)c3F)c2C(=O)NC)C1", "species": "Mycobacterium abscessus", "strain or isolate": "bolletii 103", "read by": "resazurin / turbidity", "read-out": "EC90", "result": ">100 µM"}
{"smiles": "FC(F)(F)c1ccc(Oc2ccc(Nc3ncnc4ccsc34)cc2)cc1", "species": "Mycobacterium bovis BCG", "read by": "luminescence", "read-out": "MIC50", "result": ">50 µM"}
{"smiles": "CC1(C)OC2OC([C@@H]3CC(=O)N(c4ccc(Cl)cc4)C(=O)N3)[C@H](Oc3ccccc3)C2O1", "species": "Mycobacterium aurum", "read-out": "MIC", "result": ">25 µg/mL"}
{"smiles": "CC(C)Oc1ccc(-c2ccc(Nc3ncnc4cc(F)ccc34)cc2)cc1", "species": "Mycobacterium bovis BCG", "read by": "luminescence", "read-out": "MIC50", "result": ">10 µM"}
{"smiles": "CCc1cc(C(N)=S)ccn1", "species": "Mycobacterium avium complex", "strain or isolate": "56 strains", "read by": "broth dilution", "read-out": "inhibition", "dose": "5 µg/mL", "result": "63%"}
{"smiles": "Cc1ccc2oc(=S)n(-c3ccc(C(F)(F)F)cc3)c(=S)c2c1", "species": "Mycobacterium kansasii", "strain or isolate": "My 235/80", "conditions": "14 d", "read-out": "MIC", "result": "16 µM"}
{"smiles": "FC(F)(F)c1ccc(Oc2ccc(Nc3ncnc4ccccc34)cc2)cn1", "species": "Mycobacterium bovis BCG", "read by": "luminescence", "read-out": "MIC50", "result": ">50 µM"}
{"smiles": "CCOC(=O)c1c(NC(=O)c2c(F)c(F)c(F)c(F)c2F)sc2c1CCNC2=O", "species": "Mycobacterium abscessus", "strain or isolate": "bolletii 103", "read by": "resazurin / turbidity", "read-out": "MIC", "result": ">200 µM"}
{"smiles": "C[C@@H]1CN(c2c(F)c(N)c3c(=O)c(C(=O)O)cn(C4CC4)c3c2F)C[C@H](C)N1", "species": "Mycobacterium avium complex", "strain or isolate": "N-319 (HIV-)", "read-out": "MIC", "result": "2 µg/mL"}
{"smiles": "CC(C)NCC(C)NC(C)C", "species": "Mycobacterium smegmatis", "strain or isolate": "ATCC 607", "read-out": "EC50", "result": "<250 µg/mL"}
{"smiles": "CO[C@H]1/C=C/O[C@@]2(C)Oc3c(C)c(O)c4c(O)c(c5c(c4c3C2=O)NC2(CCN(CC(C)C)CC2)N=5)=NC(=O)/C(C)=C\\C=C\\[C@H](C)[C@H](O)[C@@H](C)[C@@H](O)[C@@H](C)[C@H](OC(C)=O)[C@@H]1C", "species": "Mycobacterium avium complex", "strain or isolate": "N-316 (HIV-)", "read-out": "MIC", "result": "0.2 µg/mL"}
{"smiles": "CC(C)N(CCN(C(C)C)C(C)C)C(C)C", "species": "Mycobacterium smegmatis", "strain or isolate": "ATCC 607", "read-out": "inhibition", "dose": "1000 µg/mL", "result": "0%"}
{"smiles": "FC(F)(F)c1ccc(Oc2ccc(Nc3ncnc4[nH]ncc34)cc2)cc1", "species": "Mycobacterium bovis BCG", "read by": "luminescence", "read-out": "MIC50", "result": ">10 µM"}
{"smiles": "CCc1nc2cc(F)ccn2c1C(=O)NCc1ccc(N2CCN(c3ccc(OC(F)(F)F)cc3)[C@H]3CCCC[C@@H]32)c(F)c1.Cl", "species": "Mycobacterium avium", "read by": "fluorescence", "read-out": "inhibition", "dose": "0.87 µM", "result": "85%"}
{"smiles": "NNC(=O)c1ccncc1", "species": "Mycobacterium avium complex", "strain or isolate": "N-966 (HIV+)", "read-out": "MIC", "result": "1 µg/mL"}
{"smiles": "COc1ccc2c(Nc3ccc(Oc4ccc(C(F)(F)F)cc4)cc3)ncnc2c1", "species": "Mycobacterium bovis BCG", "read by": "luminescence", "read-out": "MIC50", "result": ">20 µM"}
{"smiles": "N[C@@H]1CONC1=O", "species": "Mycobacterium avium complex", "strain or isolate": "14 strains", "read by": "agar", "read-out": "inhibition", "dose": "30 µg/mL", "result": "71%"}
{"smiles": "CCCC(C)NCCNC(C)CCC", "species": "Mycobacterium smegmatis", "strain or isolate": "ATCC 607", "read-out": "EC50", "result": ">250 µg/mL"}
{"smiles": "NC(=O)c1c(NC(=O)c2c(F)c(F)c(F)c(F)c2F)sc2c1CCOC2", "species": "Mycobacterium abscessus", "read by": "turbidity", "read-out": "MIC", "result": "95 µM"}
{"smiles": "Cc1ccc2oc(=O)n(-c3cccc(Cl)c3)c(=S)c2c1", "species": "Mycobacterium kansasii", "strain or isolate": "6509/96", "conditions": "14 d", "read-out": "MIC", "result": "2 µM"}
{"smiles": "CCOc1cccc(CCNc2ncnc3ccsc23)c1", "species": "Mycobacterium bovis BCG", "read by": "luminescence", "read-out": "MIC50", "result": ">20 µM"}
{"smiles": "CC(=O)c1cccc(N2C(=O)C[C@@H](C3OC4OC(C)(C)OC4[C@H]3Oc3ccccc3)N(C3CC3)C2=O)c1", "species": "Mycobacterium aurum", "read-out": "MIC", "result": ">25 µg/mL"}
{"smiles": "O=C(NCc1ccc(C2CCN(c3ccc(OC(F)(F)F)cc3)CC2)c(F)c1)c1c(C(F)(F)F)nc2ccc(Cl)cn12", "species": "Mycobacterium avium", "read by": "fluorescence", "read-out": "inhibition", "dose": "0.013 µM", "result": "85%"}
{"smiles": "CCC(C)(C)NCCNC(C)(C)CC", "species": "Mycobacterium smegmatis", "strain or isolate": "ATCC 607", "read-out": "EC50", "result": ">250 µg/mL"}
{"smiles": "FC(F)(F)c1ccc(Oc2ccc(Nc3ncnc4[nH]ccc34)cc2)cc1", "species": "Mycobacterium bovis BCG", "read by": "luminescence", "read-out": "MIC50", "result": "1.68 µM"}
{"smiles": "COc1ccc2oc(=S)n(-c3ccc(F)cc3)c(=S)c2c1", "species": "Mycobacterium kansasii", "strain or isolate": "6509/96", "conditions": "14 d", "read-out": "MIC", "result": "16 µM"}
{"smiles": "FC(F)(F)c1ccc(CNc2ncnc3ccsc23)cc1", "species": "Mycobacterium bovis BCG", "read by": "luminescence", "read-out": "MIC50", "result": ">50 µM"}
{"smiles": "CO[C@H]1/C=C/O[C@@]2(C)Oc3c(C)c(O)c4c(O)c(c(/C=N/N5CCN(C6CCCC6)CC5)c(O)c4c3C2=O)NC(=O)/C(C)=C\\C=C\\[C@H](C)[C@H](O)[C@@H](C)[C@@H](O)[C@@H](C)[C@H](OC(C)=O)[C@@H]1C", "species": "Mycobacterium avium intracellulare", "strain or isolate": "998", "read-out": "MIC", "result": "0.062 µg/mL"}
{"smiles": "CCc1nc2ccc(Cl)cn2c1C(=O)NCc1ccc(C2=CCC(c3ccc(OC(F)(F)F)cc3)CC2)c(F)c1.Cl", "species": "Mycobacterium avium", "read by": "fluorescence", "read-out": "inhibition", "dose": "0.0068 µM", "result": "85%"}
{"smiles": "CCNC(=O)c1c(NC(=O)c2c(F)c(F)c(F)c(F)c2F)sc2c1CCN(CC)C2", "species": "Mycobacterium abscessus", "strain or isolate": "bolletii 103", "read by": "resazurin / turbidity", "read-out": "EC50", "result": "120 µM"}
{"smiles": "CO[C@@H]1C2OC(C)(C)OC2OC1[C@@H]1CC(=O)N(c2ccc(Cl)cc2)C(=O)N1C1CC1", "species": "Mycobacterium aurum", "read-out": "MIC", "result": ">25 µg/mL"}
{"smiles": "CO[C@H]1/C=C/O[C@@]2(C)Oc3c(C)c(O)c4c(=O)c(c5oc6cc(N7CCN(CC(C)C)CC7)cc(=O)c6nc5c4c3=C2O)NC(=O)/C(C)=C\\C=C\\[C@H](C)[C@H](O)[C@@H](C)[C@@H](O)[C@@H](C)[C@H](OC(C)=O)[C@@H]1C", "species": "Mycobacterium avium complex", "strain or isolate": "N-238 (HIV-)", "read-out": "MIC", "result": "0.05 µg/mL"}
{"smiles": "CCc1nc2ccc(Cl)cn2c1C(=O)NCc1ccc(-c2ccc(OC(F)(F)F)cc2)nc1", "species": "Mycobacterium avium", "read by": "fluorescence", "read-out": "inhibition", "dose": "0.19 µM", "result": "85%"}
{"smiles": "Cc1ccc(Oc2ccc(Nc3ncnc4ccccc34)cc2)cc1", "species": "Mycobacterium bovis BCG", "read by": "luminescence", "read-out": "MIC50", "result": ">20 µM"}
{"smiles": "CC(C)CC(C)NCCNC(C)CC(C)C", "species": "Mycobacterium smegmatis", "strain or isolate": "ATCC 607", "read-out": "EC50", "result": ">250 µg/mL"}
{"smiles": "COc1ccn2nc(C)c(C(=O)NCc3ccc(N4CCN(c5ccc(OC(F)(F)F)cc5)[C@H](C)C4)c(F)c3)c2c1.Cl", "species": "Mycobacterium avium", "read by": "fluorescence", "read-out": "inhibition", "dose": "0.0053 µM", "result": "85%"}
{"smiles": "FC(F)(F)c1cccc(Oc2ccc(CNc3ncnc4ccsc34)cc2)c1", "species": "Mycobacterium bovis BCG", "read by": "luminescence", "read-out": "MIC50", "result": ">50 µM"}
{"smiles": "O=c1oc2ccc(Br)cc2c(=S)n1-c1ccc(C(F)(F)F)cc1", "species": "Mycobacterium kansasii", "strain or isolate": "6509/96", "conditions": "21 d", "read-out": "MIC", "result": "16 µM"}
{"smiles": "FC(F)(F)c1ccc(-c2ccc(CNc3ncnc4ccccc34)cc2)cc1", "species": "Mycobacterium bovis BCG", "read by": "luminescence", "read-out": "MIC50", "result": ">20 µM"}
{"smiles": "CC(C)NC/C=C/CNC(C)C", "species": "Mycobacterium smegmatis", "strain or isolate": "ATCC 607", "read-out": "inhibition", "dose": "250 µg/mL", "result": "0%"}
{"smiles": "CCc1nc2ccc(Cl)cn2c1C(=O)NCc1ccc(N2CCC(c3ccc(OC(F)(F)F)cc3)CC2)c(F)c1.Cl", "species": "Mycobacterium avium", "read by": "fluorescence", "read-out": "inhibition", "dose": "0.0072 µM", "result": "85%"}
{"smiles": "COc1ccc2c(NCCc3ccc(OC(F)(F)F)cc3)ncnc2c1", "species": "Mycobacterium bovis BCG", "read by": "luminescence", "read-out": "MIC50", "result": ">20 µM"}
{"smiles": "CCOC(=O)c1c(NC(=O)c2c(F)c(F)c(F)c(F)c2F)sc2c1CCNC2", "species": "Mycobacterium abscessus", "read by": "turbidity", "read-out": "MIC", "result": "1.7 µM"}
{"smiles": "Fc1ccc(C2CCN(c3ccc(Nc4ncnc5cc(F)ccc45)cc3)CC2)cc1", "species": "Mycobacterium bovis BCG", "read by": "luminescence", "read-out": "MIC50", "result": ">20 µM"}
{"smiles": "Cc1cn2c(C(=O)NCc3ccc(-c4ccc(OCC(F)(F)F)cc4)c(F)c3)c(C)nc2s1", "species": "Mycobacterium avium", "read by": "fluorescence", "read-out": "inhibition", "dose": "0.031 µM", "result": "85%"}
{"smiles": "CCCCCCCCCCCCN(C(=O)NCc1ccccc1)[C@@H](CC(=O)OCC)C1O[C@@H]2OC(C)(C)O[C@@H]2[C@H]1Oc1ccccc1", "species": "Mycobacterium aurum", "read-out": "MIC", "result": ">25 µg/mL"}
{"smiles": "Fc1ccc2c(Nc3ccccc3Oc3ccc(C(F)(F)F)cc3)ncnc2c1", "species": "Mycobacterium bovis BCG", "read by": "luminescence", "read-out": "MIC50", "result": ">50 µM"}
{"smiles": "CCN1CCc2c(sc(NC(=O)c3c(F)c(F)c(F)c(F)c3F)c2C(N)=O)C1", "species": "Mycobacterium abscessus", "strain or isolate": "bolletii 103", "read by": "resazurin / turbidity", "read-out": "MIC", "result": ">200 µM"}
{"smiles": "CCCC[C@H]1CN(c2ccc(CNC(=O)c3c(CC)nc4ccc(Cl)cn34)cc2F)CCN1c1ccc(OC(F)(F)F)cc1", "species": "Mycobacterium avium", "read by": "fluorescence", "read-out": "inhibition", "dose": "0.015 µM", "result": "85%"}

6 of the rows above, restated:

smiles,species,strain or isolate,read by,conditions,read-out,dose,result
FC(F)(F)c1ccc(-c2ccc(CNc3ncnc4ccccc34)cc2)cc1,Mycobacterium bovis BCG,-,luminescence,-,MIC50,-,>20 µM
Fc1ccc2c(Nc3ccccc3Oc3ccc(C(F)(F)F)cc3)ncnc2c1,Mycobacterium bovis BCG,-,luminescence,-,MIC50,-,>50 µM
CC(C)NC/C=C/CNC(C)C,Mycobacterium smegmatis,ATCC 607,-,-,inhibition,250 µg/mL,0%
CC(=O)c1cccc(N2C(=O)C[C@@H](C3OC4OC(C)(C)OC4[C@H]3Oc3ccccc3)N(C3CC3)C2=O)c1,Mycobacterium aurum,-,-,-,MIC,-,>25 µg/mL
C[C@@H]1CN(c2c(F)c(N)c3c(=O)c(C(=O)O)cn(C4CC4)c3c2F)C[C@H](C)N1,Mycobacterium avium complex,N-319 (HIV-),-,-,MIC,-,2 µg/mL
CCC(C)(C)NCCNC(C)(C)CC,Mycobacterium smegmatis,ATCC 607,-,-,EC50,-,>250 µg/mL

ECn is the concentration giving n% inhibition of infection, replication or growth. MIC50, MIC90 and the like: level of inhibition, or share of isolates inhibited. Blank or dashed fields: not listed here. Percent inhibition refers to the dose given; in toxicity tests it is the harm to the cells.